# Measured data: PubChem BioAssay AID624099 (ICCB-Longwood, 2012)
# Test: 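Human genes that papillomavirus E2 requires to repress the HPV18 LCR promoter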 (primary screen)
# Cell system: human C33A cervical carcinoma cells (HPV-negative) stably expressing BPV1 E2 and an HPV18 LCR luciferase reporter
# Reagents: siRNA pool against human genes, 40 nM
# Duration: 72 h
# Measurement: 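HPV18 LCR reporter light per well, converted to plate-wise z-scores that exclude control wells, and averaged over triplicate plates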
# Direction: mean z-score and z-score: higher = stronger reporter signal, weaker E2 silencing
# Hit rule: 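Mean z ≥ 2 together with z ≥ 2 in two or more of the three replicates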
# Shown is one part, drawn at random, of about 21,000 reagents tested. 497 of all reagents (2.4%) count as active. 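Higher z means weaker E2 silencing; only reporter increases were scored, and knock-downs that hurt cell survival may mask genuine repressor factors.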 A number with no mark means an inactive call. The numbers tell different reagents against one gene apart.
gene symbol,pool no.,mean z-score,"z-score, replicate A","z-score, replicate B","z-score, replicate C"
CA4 (carbonic anhydrase 4),1,0.1,-0.08,0.1,0.27
PTPRG (protein tyrosine phosphatase receptor type G),1,0.59,0.49,0.23,1.04
ZNF805 (zinc finger protein 805),1,-1.05,-1,-1.53,-0.62
CENPVL1 (centromere protein V like 1),1,-0.87,-1,-0.51,-1.11
CYP4F11 (cytochrome P450 family 4 subfamily F member 11),1,-0.6,-0.57,-0.48,-0.74
"RBBP6 (RB binding protein 6, ubiquitin ligase)",1,-0.46,-0.32,-0.68,-0.39
GCM2 (GCM transcription factor 2),1,-0.14,0,-0.22,-0.2
GPR75 (G protein-coupled receptor 75),1,0.13,0.01,0.25,0.13
DR1 (down-regulator of transcription 1),1,0.51,0.51,0.42,0.6
SLC66A1LP,1,-0.3,0.33,-0.65,-0.57
PLAAT1 (phospholipase A and acyltransferase 1),1,-0.23,-0.06,-0.05,-0.57
GINS1 (GINS complex subunit 1),1,0.1,0.19,0.13,-0.02
TRAPPC14 (trafficking protein particle complex subunit 14),1,-1.48,-1.61,-1.66,-1.17
MYH7 (myosin heavy chain 7),1,0.53,0.76,0.33,0.49
PAQR4 (progestin and adipoQ receptor family member 4),1,2.4 (active),2.25,2.73,2.24
"MYPOP (Myb related transcription factor, partner of profilin)",1,-0.41,-0.25,-0.29,-0.67
EBLN1 (endogenous Bornavirus like nucleoprotein 1),1,0.79,1.5,0.13,0.73
PHKG1 (phosphorylase kinase catalytic subunit gamma 1),1,0.66,0.58,0.51,0.89
RNF17 (ring finger protein 17),1,0.9,0.7,1.31,0.7
RNF17 (ring finger protein 17),2,-0.91,-1.06,-0.94,-0.74
TMEM120B (transmembrane protein 120B),1,-2,-2.09,-1.97,-1.94
CHRNA5 (cholinergic receptor nicotinic alpha 5 subunit),1,-0.92,-0.98,-1.06,-0.73
DOHH (deoxyhypusine hydroxylase),1,-0.2,-0.31,0.05,-0.34
KLHL12 (kelch like family member 12),1,-0.19,-0.67,-0.29,0.37
ABCD1 (ATP binding cassette subfamily D member 1),1,1.27,0.87,1.51,1.43
RILPL2 (Rab interacting lysosomal protein like 2),1,0.44,0.16,0.59,0.57
"TMLHE (trimethyllysine hydroxylase, epsilon)",1,0.42,0.47,0.28,0.52
ATAD3B (ATPase family AAA domain containing 3B),1,0.84,0.68,0.69,1.14
NLGN2 (neuroligin 2),1,0.28,0.44,0.32,0.08
ST20-AS1 (ST20 antisense RNA 1),1,0.56,0.43,0.78,0.47
NOC2L (NOC2 like nucleolar associated transcriptional repressor),1,-1.41,-1.32,-1.66,-1.24
POU3F1 (POU class 3 homeobox 1),1,-1.18,-1.07,-1.2,-1.27
ZFP28 (ZFP28 zinc finger protein),1,0.9,1.08,0.82,0.82
SFMBT1 (Scm like with four mbt domains 1),1,-0.43,-0.33,-0.46,-0.5
TM4SF1 (transmembrane 4 L six family member 1),1,0.81,0.7,0.58,1.16
TENM4 (teneurin transmembrane protein 4),1,-0.23,-0.3,-0.41,0.03
MAMDC2 (MAM domain containing 2),1,-0.03,-0.26,-0.04,0.22
BTBD17 (BTB domain containing 17),1,-0.57,-0.69,-0.8,-0.21
ERBIN (erbb2 interacting protein),1,0.14,-0.02,0.26,0.19
LILRA5 (leukocyte immunoglobulin like receptor A5),1,0.51,0.62,0.92,-0.03
TENT5B (terminal nucleotidyltransferase 5B),1,-1.12,-1.37,-1.17,-0.81
PRELID3B (PRELI domain containing 3B),1,0.15,0.42,0.03,-0.01
GP2 (glycoprotein 2),1,-1.25,-1.3,-1.21,-1.26
DEDD2 (death effector domain containing 2),1,-0.38,-0.13,-0.53,-0.48
KCNMB2,1,0.33,0.53,0.38,0.08
CCDC74B (coiled-coil domain containing 74B),1,-0.07,0.01,0.06,-0.27

A run of entries taken from the entries so far, as a working copy:
gene symbol,pool no.,mean z-score,"z-score, replicate A","z-score, replicate B","z-score, replicate C"
RNF17 (ring finger protein 17),2,-0.91,-1.06,-0.94,-0.74
TMEM120B (transmembrane protein 120B),1,-2,-2.09,-1.97,-1.94
CHRNA5 (cholinergic receptor nicotinic alpha 5 subunit),1,-0.92,-0.98,-1.06,-0.73
DOHH (deoxyhypusine hydroxylase),1,-0.2,-0.31,0.05,-0.34
KLHL12 (kelch like family member 12),1,-0.19,-0.67,-0.29,0.37

The results go on:
gene symbol,pool no.,mean z-score,"z-score, replicate A","z-score, replicate B","z-score, replicate C"
C8orf74 (chromosome 8 open reading frame 74),1,-0.99,-0.79,-1.18,-0.99
PITRM1 (pitrilysin metallopeptidase 1),1,0.38,0.45,0.36,0.34
PANX1 (pannexin 1),1,0.28,0.35,0.45,0.04
NAGA (alpha-N-acetylgalactosaminidase),1,1.21,1.17,1.44,1.02
CSNK1G2 (casein kinase 1 gamma 2),1,-0.19,-0.25,0.08,-0.4
FBXO30 (F-box protein 30),1,-2.38,-2.22,-2.68,-2.24
KDELR1 (KDEL endoplasmic reticulum protein retention receptor 1),1,1.18,1.16,1.3,1.08
VRK2 (VRK serine/threonine kinase 2),1,1.27,1.11,1.45,1.24
ZNF655 (zinc finger protein 655),1,0.72,0.8,0.77,0.59
TRIM10 (tripartite motif containing 10),1,-1.44,-1.38,-1.41,-1.54
TXNDC5 (thioredoxin domain containing 5),1,-0.2,-0.54,-0.32,0.27
PASK (PAS domain containing serine/threonine kinase),1,-1.25,-0.88,-1.12,-1.74
HEY1,1,-0.92,-0.94,-1.33,-0.49
RBP5 (retinol binding protein 5),1,0.69,0.45,0.99,0.62
C1R (complement C1r),1,0.93,1.1,0.92,0.77
CNTRL (centriolin),1,0.27,0.35,0.27,0.19
HOXD4 (homeobox D4),1,0.04,0.21,-0.22,0.12
CIP2A (cellular inhibitor of PP2A),1,-0.26,0.47,-0.74,-0.5
LOC157278 (retired record),1,-1.16,-1.19,-1.24,-1.04
CAAP1 (caspase activity and apoptosis inhibitor 1),1,0.38,0.74,0.13,0.27
CYSRT1 (cysteine rich tail 1),1,1.97,2.02,1.88,2.02
COMP (cartilage oligomeric matrix protein),1,1.65,1.76,1.68,1.51
TCOF1 (treacle ribosome biogenesis factor 1),1,0.7,0.78,0.69,0.64
PTX4 (pentraxin 4),1,-0.33,-0.44,-0.04,-0.51
CCL25 (C-C motif chemokine ligand 25),1,-0.13,-0.11,-0.03,-0.26
BMS1P15 (BMS1 pseudogene 15),1,-1.03,-1.13,-1.24,-0.72
S100A5 (S100 calcium binding protein A5),1,0.19,0.27,0.06,0.24
